Data: BindingDB's records for 17951059

Sequences of proteins named here, by UniProt entry; tags and fusion partners are left off. Residues count along the entry.
UniProt Q45894, 1-425: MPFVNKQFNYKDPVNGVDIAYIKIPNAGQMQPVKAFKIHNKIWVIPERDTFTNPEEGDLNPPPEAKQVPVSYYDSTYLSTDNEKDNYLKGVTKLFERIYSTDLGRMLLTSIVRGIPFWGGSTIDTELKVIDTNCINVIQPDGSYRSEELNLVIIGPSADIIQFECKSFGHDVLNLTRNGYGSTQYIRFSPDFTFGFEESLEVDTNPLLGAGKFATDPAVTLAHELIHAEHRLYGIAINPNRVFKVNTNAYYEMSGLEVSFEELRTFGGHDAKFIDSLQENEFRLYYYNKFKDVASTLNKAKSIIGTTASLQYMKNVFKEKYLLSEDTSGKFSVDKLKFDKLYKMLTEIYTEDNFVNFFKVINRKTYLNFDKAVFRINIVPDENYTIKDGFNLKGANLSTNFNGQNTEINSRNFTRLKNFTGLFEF

Molecular target: Botulinum neurotoxin type A2 [1-425] (Clostridium botulinum, UniProt Q45894)
Conditions: pH 7.4

| Structure (SMILES) | IC50 |
| --- | --- |
| O=C(/C=C/c1ccc(Cl)cc1Br)NO | 700 nM |
| O=C(/C=C/c1ccc(Cl)cc1)NO | 15000 nM |
| O=C(/C=C/c1ccc(Cl)cc1[N+](=O)[O-])NO | 2000 nM |
| COc1cc(Cl)ccc1/C=C/C(=O)NO | 9000 nM |
| Cc1cc(Cl)ccc1/C=C/C(=O)NO | 800 nM |
| O=C(/C=C/c1ccc(Cl)cc1C(F)(F)F)NO | 600 nM |
